# Structures can show the parent of a compound that is named as a salt.
smiles,measurement,setting,value
"COc1cccc(-c2ccc(NC(=O)C3=C(C(=O)O)CCC3)c(F)c2)c1 [IMU-838, 1-cyclopentene-1-carboxylic acid, 2-(((3-fluoro-3′-methoxy(1,1′-biphenyl)-4-yl)amino)carbonyl)-, calcium salt (2:1)]",reduction of infectivity (CCID50),SARS-CoV-2 B.1.1.7,> 3 log units
same,reduction of infectivity (CCID50),SARS-CoV-2 B.1.351,> 3 log units

# From patent US11376232B2, “Vidofludimus for use in the treatment or prevention of viral diseases” (Immunic AG, priority 2020, dated 2022)
